Test results as given in publication PMC5775428, “Towards an experimental classification system for membrane active peptides” (Scientific Reports, 2018).

Experiments:
[1] = PCA2 and hierarchical clustering of DSC data; parameters: key: Cluster 1 is composed by molecules with no significant interaction with the evaluated model membranes; Cluster 2 peptides present no detectable interaction with DMPC LUVs but disturb the main phase transition of 2:1 DMPC:DMPG LUVs; Cluster 3: Clusters 3 and 4 are populated by IAPs and AMPs that alter the main phase transition DMPC and 2:1 DMPC:DMPG LUVs and present significant and broad antimicrobial activity; Cluster 4: Clusters 3 and 4 are populated by IAPs and AMPs that alter the main phase transition DMPC and 2:1 DMPC:DMPG LUVs and present significant and broad antimicrobial activity; Cluster 5: The peptide cluster 5 is composed solely of AMPs; details: cluster membership from HCA of first five principal components of PCA2 (DSC data)
[2] = Far-UV CD, percent helicity in buffer; format: physicochemical; details: CD [θ]222 nm, 40 μM peptide in buffer, method of Chen et al., 2016 dataset
[3] = Far-UV CD, percent helicity with DMPC LUVs; format: physicochemical; details: CD [θ]222 nm, 40 μM peptide + DMPC LUVs, 2016 dataset
[4] = Far-UV CD, percent helicity with 2:1 DMPC:DMPG LUVs; format: physicochemical; details: CD [θ]222 nm, 40 μM peptide + 2:1 DMPC:DMPG LUVs, 2016 dataset
[5] = DSC of DMPC LUVs with peptide; details: 2016 dataset; for Tm_broad_pc, transition temperature of broad component: 0.5 mM DMPC LUVs + 20 μM peptide (4 mol%), pH 7.4, P′β→Lα transition, non-two state fit; for H_broad_pc, transition enthalpy of broad component / H_sharp_pc, transition enthalpy of sharp component / Hv_broad_pc, van´t Hoff transition enthalpy of broad component / Hv_sharp_pc, van´t Hoff transition enthalpy of sharp component / Tm_sharp_pc, transition temperature of sharp component: DMPC LUVs + 4 mol% peptide
[6] = DSC of 2:1 DMPC:DMPG LUVs with peptide
[7] = 2:1 DMPC:DMPG LUVs + 4 mol% peptide, 2016 dataset

Sequence	Cluster [1]	% Helicity (Buffer) [2] [%]	% Helicity 0.01 peptide/DMPC (mol/mol) [3] [%]	% Helicity 0.01 peptide/(2:1 DMPC/DMPG) (mol/mol) [4] [%]	Tm_broad_pc, transition temperature of broad component [5] [°C]	H_broad_pc, transition enthalpy of broad component [5] [kcal/mol]	H_sharp_pc, transition enthalpy of sharp component [5] [kcal/mol]	Hv_broad_pc, van´t Hoff transition enthalpy of broad component [5] [kcal/mol]	Hv_sharp_pc, van´t Hoff transition enthalpy of sharp component [5] [kcal/mol]	Tm_sharp_pc, transition temperature of sharp component [5] [°C]	Tm_broad_pcpg, transition temperature of broad component ([6]; 0.5 mM 2:1 DMPC:DMPG LUVs + 20 μM peptide (4 mol%), pH 7.4, 2016 dataset) [°C]	H_broad_pcpg, transition enthalpy of broad component [6, 7] [kcal/mol]	H_sharp_pcpg, transition enthalpy of sharp component [6, 7] [kcal/mol]	Hv_broad_pcpg, van´t Hoff transition enthalpy of broad component [6, 7] [kcal/mol]	Hv_sharp_pcpg, van´t Hoff transition enthalpy of sharp component [6, 7] [kcal/mol]	Tm_sharp_pcpg, transition temperature of sharp component [6, 7] [°C]
FFYNVIKIYGNMAGRISK [Cs03, putative IAP, KDO49351.1 (129–146)]	Cluster 2															
GAKLAKKQVRALGKFFSF [At03, putative IAP, NP_176750.1 (209–226)]	Cluster 1	-1.2	-1.2	30.8												
GFKDLLKGAAKALVKTVLF [Asc-8, Ascaphin 8, reference compound]	Cluster 4	2.7	74.2	88.5												
GFKLGRKLVKVFKWII [Gr01, putative IAP, XP_012439503.1 (6–21)]	Cluster 3	0.9	57.7	115.0												
GIVLKDLFSEKLRRYKIVIG [Tc09, putative IAP, EOY11242.1 (688–707)]	Cluster 2	12.3	19.3	-0.8												
GKILKYLLYLLRKYANLIIR [Tc02, putative IAP, EOX91068.1 (202–221)]	Cluster 4	60.4	65.6	77.0	23.55	5200	1461	84750	272000	21.94						
GLLFKELQKLIRYQIFIGK [Tc10, putative IAP, EOY11257.1 (701–719)]	Cluster 2	20.3	5.1	49.6	23.20	4147	2638	177000	539000	23.68						
GLYNFIKVLGRTVFGLYKQF [At04, putative IAP, NP_176750.1 (334–353)]	Cluster 1				23.78	3819	1297	257000	799000	24.11						
GSLHGFMYKYLKNMVLNLF [Tc06, putative IAP, EOY24636.1 (117–135)]	Cluster 3	29.4	31.5	34.9							24.91	2727	2599	113800	563300	23.43
GSLHGFMYKYLKNMVLTLF [At01, putative IAP, NP_172734.2 (118–136)]	Cluster 3	32.4	26.4	28.4												
GSLHGFMYKYLKTLVLRLY [Zm01, putative IAP, XP_008663476.1 (153–171)]	Cluster 3	31.0	42.2	65.5												
GSLHGFMYRYLKNMVLNLF [Cs01, putative IAP, XP_006477592.1 (117–135)]	Cluster 3	26.3	37.8	27.5												
IVNHLVKLFDKGLNSIVNLR [Tc05, putative IAP, EOY07102.1 (47–66)]	Cluster 2	8.3	34.9	68.8												
KVLSKVHTLLKAVLAL [At02, putative IAP, SIP121-0-PQ4 (45–60)]	Cluster 3	13.3	32.6	79.8	25.10	2915	3114	125000	500300	23.35						
LHRLVKLVAALLRGYASKVDTH [Tc08, putative IAP, EOY11557.1 (289–310)]	Cluster 4	9.0	40.4	62.1												
LIKVVNHVQYNVTLHWHGIR [Tc07, putative IAP, EOY07477.1 (79–98)]	Cluster 1				23.28	4043	2363	199800	664100	23.94						
RVLKDVESALRESVANWKIVIG [Tc04, putative IAP, EOY21465.1 (193–214)]	Cluster 1	14.3	15.8	36.3	23.29	3780	2686	190000	607000	23.93						
VALRLAKEVIKVQQGW [Tc01, putative IAP, EOX93337.1 (95–110)]	Cluster 3	5.0	4.5	64.8	23.32	3988	2392	202000	649000	23.94						
VWTTAMEKSSAANFSMSRNQRRSSLHSL [gb|AAD22970.1|(120-148)]	Cluster 2															
